Reference: PubChem BioAssay AID1259311 (ICCB-Longwood Screening Facility, Harvard Medical School, 2017)
Only a part is listed here, and it is no random draw. The source made the active and inactive calls. Cut-off read from the data, not from the text of the source: active = inhibition above about 85%; inactive = the rest.

assay: growth inhibition of S. aureus RN4220, primary screen, OD600 (AID 1259311); details: OD600, 16 h, stronger effect = higher value;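 note: plate controls were untreated cells for no effect and reference antibiotic for full effect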

SMILES	inhibition
O=[N+]([O-])c1ccc(O)c(C=NNc2ccc([N+](=O)[O-])cc2[N+](=O)[O-])c1	active: 99.1%
O=c1c2cc([N+](=O)[O-])ccc2[nH]c2c([N+](=O)[O-])cc([N+](=O)[O-])cc12	active: 99.3%
